Results of unrelated studies side by side (data: NIAID ChemDB).

Lines come from different laboratories, so protocols vary. ECn is the concentration giving n% inhibition of infection, replication or growth. CCn: concentration that lowers growth or viability of the cells by n%. MIC bound comes from a single tested concentration. An empty or dashed field is not shown. Zones are inhibition diameters on agar. ICn: concentration for n% inhibition. Inhibition is in % at the dose shown (toxicity tests: loss of growth or viability).

| smiles | tested at | target | cells | read by | species | strain or isolate | measure | setting | test | value |
|---|---|---|---|---|---|---|---|---|---|---|
| Cc1ccc(NC(=O)NP(=O)(Nc2ccccc2)Nc2ccccc2)cc1Cl | - | - | - | BACTEC | Mycobacterium tuberculosis | H37Rv | MIC bound | - | culture | >12.5 µg/mL |
| Cc1cn([C@H]2C[C@H](F)[C@@H](CO)O2)c(=O)[nH]c1=O | 0.1 µM | - | H9 | RT activity | HIV-1 | - | inhibition | - | culture | 56.39% |
| S=P1(Oc2ccccc2)NNP2(=NP(Cl)(Cl)=NP(Cl)(Cl)=N2)NN1 | 128 µg/mL | - | - | BACTEC | Mycobacterium tuberculosis | H37Rv | inhibition | - | culture | 100% |
| Nc1cc([As]=O)ccc1O | - | - | PBL | - | - | - | CC50 | - | toxicity | >6 µg/mL |
| Cc1nc([N+](=O)[O-])cn1-c1cn(-c2ccc([N+](=O)[O-])cc2[N+](=O)[O-])c(=O)[nH]c1=O | 6.25 µg/mL | - | - | - | Mycobacterium tuberculosis | - | inhibition | - | culture | <90% |
| Cc1cn([C@H]2CC[C@@H](COP(=O)(O)F)O2)c(=O)[nH]c1=O | - | - | PBMC | XTT | - | - | CC50 | - | toxicity | 580 µM |
| O=[N+]([O-])c1cc(Cn2nnc(-c3cc([N+](=O)[O-])cc([N+](=O)[O-])c3)n2)cc([N+](=O)[O-])c1 | - | - | - | - | Mycobacterium kansasii | My 235/80 | MIC | 21 d | culture | 2 µM |
| C[N+]1([O-])C2CC3CC1C(O3)C2O.O=[N+]([O-])c1cc([N+](=O)[O-])c(O)c([N+](=O)[O-])c1 | - | - | - | BACTEC | Mycobacterium tuberculosis | H37Rv | MIC bound | - | culture | >12.5 µg/mL |
| Cc1cn([C@H]2C[C@H](F)[C@@H](COP(=O)(O)C(F)Cl)O2)c(=O)[nH]c1=O | - | - | H9 | p24 | HIV-1 | - | EC50 | - | culture | 3.5 µM |
| Nc1ncnc2c1ncn2[C@H]1CC[C@@H](CO)O1 | - | - | MT-4 | - | - | - | CC50 | - | toxicity | 1493 µM |
| Cc1cn([C@H]2C[C@H](N=[N+]=[N-])[C@@H](COP(=O)(F)OCCSC(=O)C(C)(C)C)O2)c(=O)[nH]c1=O | - | - | CEM + CEM TK- | - | HIV-1 | IIIB | EC50 | - | culture | 18 µM |
| CN(C)P1(Cl)=NP(Cl)(N(C)C)=NP(Cl)(N(C)C)=N1 | - | - | - | BACTEC | Mycobacterium tuberculosis | H37Rv | MIC | - | culture | ≥128 µg/mL |
| Cc1cn(C2CC(OP(=O)(O)OCC3OC(n4cnc5c(=O)[nH]c(N)nc54)CC3OP(C)(=O)OCC3OC(n4cnc5c(=O)[nH]c(N)nc54)CC3OP(C)(=O)OCC3OC(n4cnc5c(=O)[nH]c(N)nc54)CC3OP(C)(=O)OCC3OC(n4cnc5c(N)ncnc54)CC3OP(C)(=O)OCC3OC(n4cnc5c(=O)[nH]c(N)nc54)CC3O)C(COCc3ccc(OCc4ccccc4)c(OCc4ccccc4)c3)O2)c(=O)[nH]c1=O | - | - | MT-4 | cytopathic effect / MTT | HIV-1 | - | EC50 | - | culture | >50 µg/mL |
| O=P1(c2ccccc2)Nc2ncnc(Cl)c2N1 | - | - | - | BACTEC | Mycobacterium tuberculosis | H37Rv | MIC bound | - | culture | >12.5 µg/mL |
| Nc1cc([As]=O)ccc1O | - | - | MT-2 | - | - | - | CC50 | - | toxicity | 0.45 µg/mL |
| Cc1ccc(NCCCl)c2c(=O)c3ccccc3sc12 | 12.5 µg/mL | - | - | BACTEC | Mycobacterium tuberculosis | H37Rv | inhibition | - | culture | -8% |
| O=[N+]([O-])c1ccc(S(=O)(=O)c2ccc([N+](=O)[O-])cc2[N+](=O)[O-])c([N+](=O)[O-])c1 | - | Integrase | - | 3′ processing | HIV-2 | - | IC50 | - | target | 77 µM |
| Cc1ccc([N+](=O)[O-])cc1NC(=O)NNc1c([N+](=O)[O-])cc(C(F)(F)F)cc1[N+](=O)[O-] | - | - | - | BACTEC | Mycobacterium tuberculosis | H37Rv | MIC | - | culture | 12.5 µg/mL |
| Cc1cn([C@H]2CC[C@@H](CO)O2)c(=O)[nH]c1=O | - | - | MT-4 | p24 | HIV-1 | - | EC50 | - | culture | 1.88 µM |
| CN1C(=O)N(C)P12(Cl)N(C)C(=O)N2C | - | - | - | BACTEC | Mycobacterium tuberculosis | H37Rv | MIC bound | - | culture | >12.5 µg/mL |
| CC1=NO[C@@]2(CC[C@H](C)N3C[C@H]2n2cc(C(=O)NCc4ccc(F)cc4F)c(=O)c(OC(=O)N(C)Cc4ccc(OP(=O)(O)O)cc4)c2C3=O)C1 | - | - | MT-4 | luminescence | - | - | CC50 | - | toxicity | 50 µM |
| O=c1ccn([C@H]2CC[C@@H](CO)O2)c(=O)[nH]1 | - | - | PBMC | p24 | HIV-1 | - | EC50 | - | culture | 100 µM |
| Cc1nc([N+](=O)[O-])cn1-c1ccc([N+](=O)[O-])cc1[N+](=O)[O-] | 6.25 µg/mL | - | - | - | Mycobacterium tuberculosis | H37Rv | inhibition | - | culture | 91% |
| C(/C=C/c1ccccc1)=NCCNCCN=C/C=C/c1ccccc1.[N-]=[N+]=[N][Hg][N]=[N+]=[N-] | 20000 µg/mL | - | - | agar diffusion | Aspergillus niger | - | zone | - | culture | 36 mm |
| Nc1ccn([C@H]2CC[C@@H](CO)O2)c(=O)n1 | - | - | MT-4 | p24 / ELISA | HIV-1 | - | EC50 | - | culture | 0.29 µM |
| CCN(CC)CC#CCOC(=O)C(O)(c1ccccc1)c1cccs1 | - | - | - | - | Mycobacterium tuberculosis | H37Rv | MIC bound | - | culture | >6.25 µg/mL |
| N#Cc1c(SCCBr)nsc1-c1ccccc1 | - | - | L-929 | - | - | - | CC50 | - | toxicity | 25 µg/mL |

Again, the opening 4 rows:

Cc1ccc(NC(=O)NP(=O)(Nc2ccccc2)Nc2ccccc2)cc1Cl ; read by: BACTEC ; species: Mycobacterium tuberculosis ; strain or isolate: H37Rv ; measure: MIC bound ; test: culture ; value: >12.5 µg/mL
Cc1cn([C@H]2C[C@H](F)[C@@H](CO)O2)c(=O)[nH]c1=O ; tested at: 0.1 µM ; cells: H9 ; read by: RT activity ; species: HIV-1 ; measure: inhibition ; test: culture ; value: 56.39%
S=P1(Oc2ccccc2)NNP2(=NP(Cl)(Cl)=NP(Cl)(Cl)=N2)NN1 ; tested at: 128 µg/mL ; read by: BACTEC ; species: Mycobacterium tuberculosis ; strain or isolate: H37Rv ; measure: inhibition ; test: culture ; value: 100%
Nc1cc([As]=O)ccc1O ; cells: PBL ; measure: CC50 ; test: toxicity ; value: >6 µg/mL